In patent publication US20160009789A1 one finds Kd and EC50 data, which are given here for one substance.

The target of assay [1] is 93TH057 gp120. Put plainly: SPR; deglycosylated.
For assay [2], the target named is 93TH057. Put plainly: ELISA; deglycosylated.

As usually defined, the Kd is the constant that tells how readily two partners part at equilibrium. Higher therefore signals a looser complex. A word on the EC50: it is the midpoint of the concentration-response curve. Low values mean higher potency in that assay, high ones lower potency in that assay. The substance Deglycosylated VRC01 came in with a Kd in assay [1] of 2.48 nM. The substance also showed an EC50 in assay [2] of 0.048 µg/mL.
